# Experimental data as given in PubChem BioAssay AID1430 (University of Pittsburgh Molecular Library Screening Center, 2008).
# Only a part is listed here, and it is no random draw. Calls of active or inactive are those of the source.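 Rule for the calls: active = inhibition of 50% or more in the single-dose primary screen; inactive = inhibition below 50%.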
# Tested on: hexokinase 1 [Trypanosoma brucei]
# Experiment: TbHK1 enzyme activity blockers – biochemical, G6PDH-coupled NADH absorbance, MLSCN library, primary screen (AID 1430)
# Settings: recombinant TbHK1, G6PDH-coupled NADH A340; at 10 µM; hits give high values
row,SMILES,inhibition
1,COP1(=S)c2c(C)nn(CCC#N)c2N=C(c2ccc(F)cc2)N1C (stereo not given),inactive: 4.91%
2,O=C(COc1ccccc1)OC1CN2CCC1CC2 (stereo not given),inactive: -3.88%
3,CCOC(=O)c1ccc(NC(=O)C(C)(CCl)SC)cc1 (stereo not given),inactive: -4.42%
4,CCC(C)N(CC(C)C)C(=S)SC(NC(C)=O)C(Cl)(Cl)Cl (stereo not given),inactive: 4.69%
5,CCOC(=O)Nc1ccc([As](=O)(O)O)c(O)c1,inactive: -8.35%
6,Cc1cc(SC(NC(=O)c2ccccc2)C(Cl)(Cl)Cl)nc(C(C)C)n1 (stereo not given),inactive: -7.22%
7,CCOC(=O)Nc1cccc([As](=O)(O)O)c1,inactive: 6.31%
8,O=P(Nc1ccccn1)(c1cccc2ccccc12)c1cccc2ccccc12,inactive: 3.94%
9,Cc1cc(SC(NC=O)C(Cl)(Cl)Cl)ncn1 (stereo not given),inactive: -2.12%
10,O=[N+]([O-])c1ccc(Nc2ccc(Oc3ccc([N+](=O)[O-])cc3[N+](=O)[O-])cc2)c([N+](=O)[O-])c1,inactive: -25.3%
11,C[As](=O)(O)c1cccc(C(=O)O)c1,inactive: -4.68%
12,O=[As](O)(c1ccc(O)cc1)c1ccccc1O,inactive: -1.17%
13,Cc1ccc(OP(=O)(Nc2ccc([N+](=O)[O-])cn2)Oc2ccc(C)cc2)cc1,inactive: -16.4%
14,Cc1ccc2nc3c(c(C)c2c1)CC(C(Cl)Cl)S3 (stereo not given),inactive: -2.46%
15,ClCCSc1nnc(-c2cccnc2)o1,inactive: -0.955%
16,CC(C)c1ccc(OP(=O)(Nc2ccccn2)Oc2ccccc2F)cc1 (stereo not given),inactive: 1.31%
17,CC(C)NC(=O)NP(=O)(Oc1ccccc1)Oc1ccccc1,inactive: 4.57%
18,CCN(CC)C(=S)SC(NC=O)C(Cl)(Cl)Cl (stereo not given),inactive: -0.357%
19,O=[N+]([O-])c1cc([N+](=O)[O-])c(-c2ccn[nH]2)s1,inactive: -23.9%
20,Cc1c2c(nc3ccccc13)SC(C(Cl)Cl)C2 (stereo not given),inactive: -8.91%
21,O=C(OC1CN2CCC1CC2)C12CC3CC(CC(C3)C1)C2 (stereo not given),inactive: 9.63%
22,Cc1cc(=O)[nH]c(N[N+](=O)[O-])n1,inactive: -5.3%
23,COc1ccc2nc(NP(=O)(c3ccccc3)c3ccccc3)sc2c1,inactive: -1.64%
24,COc1cc(I)ccc1[As](=O)(O)O,inactive: -2.76%
25,COc1ccc(N/C(=N/P(=O)(N2CCOCC2)N2CCOCC2)N2CCOCC2)cc1,inactive: 2.63%
